Assay results reported in patent US20220401514A1, “ANTIMICROBIAL, BACTERIOPHAGE-DERIVED POLYPEPTIDES AND THEIR USE AGAINST GRAM-NEGATIVE AND ACID-FAST BACTERIA” (CONTRAFECT CORPORATION, priority 2019, published 2022).

Key:
[1] = system: P. aeruginosa strain CFS-1292; assay type: cell-based, Pseudomonas aeruginosa; settings: CAA media with agent at 4×MIC; resistant colonies after 48 hours / total CFUs
[2] = system: P. aeruginosa strain CFS 1292; assay type: cell-based, Pseudomonas aeruginosa; settings: serial passage

Row | Structure (SMILES) | frequency (spontaneous resistance) [1] | change in MIC after 21 days [2]
1 | NC[C@H]1O[C@H](O[C@H]2[C@H](O)[C@@H](O[C@H]3O[C@H](CO)[C@@H](O)[C@H](N)[C@H]3O)[C@H](N)C[C@@H]2N)[C@H](N)C[C@@H]1O [tobramycin, reference compound] | 3.85E−09 | 
2 | O=C(O)c1cn(C2CC2)c2cc(N3CCNCC3)c(F)cc2c1=O [ciprofloxacin, reference compound] |  | significant increases
